A mixed list of measured activities; the numbers were collected in NIAID ChemDB.

Common to all: growth or infection tests; species: Respiratory syncytial virus; cell line: HEP-2; endpoint: EC50

Rows are shuffled and stem from different studies. ECn is the concentration giving n% inhibition of infection, replication or growth. Blank or dashed fields: not listed here.

| structure | strain or isolate | method | result |
|---|---|---|---|
| CCOP(=O)(O)c1ccc(Cn2c(=O)n(Cc3nc4ccccc4n3CCC(C)C)c3ccccc32)cc1 | Long (subtype A) | cytopathic effect | 0.05 µM |
| NC(=O)c1ncn([C@@H]2O[C@H](CO)[C@@H](O)[C@H]2O)n1 | FM-58-8 | plaque count | 24.1 µM |
| COc1ccc(-c2cc(=O)c3c(O)cc(O)c(-c4cc(-c5cc(=O)c6c(O)cc(OC)cc6o5)ccc4O)c3o2)cc1 |  | plaque count | 50 µg/mL |
| Cc1nnnn1/C=C/c1ccc(O)c(C(c2ccc(O)cc2)c2cc(/C=N/n3nnnc3C)ccc2O)c1 |  | cytopathic effect | 0.0014 µM |
| NC(=O)c1nc(F)c[nH]c1=O |  | plaque count | 41 µg/mL |
| CC(C)CCn1c(Cn2c(=O)n(CCCCCN=[N+]=[N-])c3ccccc32)nc2ccccc21 | Long (subtype A) | cytopathic effect | 0.01 µM |
| Cc1ccc(O)c(Cn2c(NC3CCN(CCN)CC3)nc3c(C)cccc32)n1 | A2 |  | 0.0021 µM |
| COc1cc(O)c2c(=O)cc(-c3ccc(O)c(-c4c(O)cc(O)c5c(=O)cc(-c6ccc(O)cc6)oc45)c3)oc2c1 |  | plaque count | >100 µg/mL |
| CCC1[C@H](OC2O[C@H](CO)[C@@H](O)[C@H](O)[C@H]2O)OC=C(C(=O)O)[C@H]1CC(=O)OCCc1ccc(O)cc1 | LONG | cytopathic effect | >150 µM |
| CN(C)CCn1c(Cn2c(=O)n(CCN(C)C)c3ccccc32)nc2ccccc21 | Long (subtype A) | cytopathic effect | 0.4 µM |
| C/C=C1\[C@H](OC2O[C@H](CO)[C@@H](O)[C@H](O)[C@H]2O)OC=C(C(=O)O)[C@H]1CC(=O)OCC(OCC)c1ccc(O)c(O)c1 | LONG | cytopathic effect | >150 µM |
| NC(=O)c1ncn([C@@H]2O[C@H](CO)[C@@H](O)[C@H]2O)n1 |  | cytopathic effect | 10.7 µg/mL |
| Nc1nccc2c1ncn2[C@@H]1C[C@H](CO)[C@@H](O)[C@H]1O |  | cytopathic effect | 9 µg/mL |
| NC(=O)c1ncn([C@@H]2O[C@H](CO)[C@@H](O)[C@H]2O)n1 | 20 | plaque count | 4 µg/mL |
| CC(C)CCn1c(Cn2c(=O)n(Cc3ccccc3C(=O)N[C@H](CC(=O)O)C(=O)O)c3ccccc32)nc2ccccc21 | Long (subtype A) | cytopathic effect | 0.01 µM |

Repeating the final 2 entries:

structure	strain or isolate	method	result
NC(=O)c1ncn([C@@H]2O[C@H](CO)[C@@H](O)[C@H]2O)n1	20	plaque count	4 µg/mL
CC(C)CCn1c(Cn2c(=O)n(Cc3ccccc3C(=O)N[C@H](CC(=O)O)C(=O)O)c3ccccc32)nc2ccccc21	Long (subtype A)	cytopathic effect	0.01 µM